According to patent US10172362B2, “Biofilms, components and methods of use to reduce biofouling and contamination” (THE PENN STATE RESEARCH FOUNDATION, priority 2015, dated 2019):

Tested on: P. aeruginosa biofilm
Assay: P. aeruginosa biofilm formation in 96-well plates with SNP as NO donor
Conditions: 5 μM SNP, 24 h, 37° C., M9G, 96 well plate
Method: The average of PAO1 in FIG. 12 A-O measurements was biomass of 18.01 μm^3/μm^2, biofilm thickness of 42.03 μm and roughness co-efficient of 0.18. Average of E. coli NO− was biomass of 0.80 μm^3/μm^2, biofilm thickness of 2.25 μm and roughness co-efficient of 1.95. […] Biofilms were formed for 24 hr on NF90 membranes with M9G medium, Cm (300 μg/mL), Cb (250 μg/mL), 1.6% arabinose, and 15 mM L-arginine. The RO system was pressurized at 50 psi and stirred at 400 rpm; 0, 5, 10, and 15 mM NaCl feed concentrations were used to test the permeate flux through membranes with the biofilms. There is no significant difference for flux values between the E. coli NO+ and E. coli NO− biofilm covered membrane−; the flux is also similar to that of the E. coli LasI/LasR (TG1/pBdcAE50Q-lasI-lasR) biofilm-covered membrane shown in FIG. 7D. […]
Biofilm Formation Assay Using Crystal Violet. […] The total biofilm formation samples were measured at 540 nm, whereas cell growth was measured at 620 nm. […]

## sodium nitroprusside
  reduction of normalized P. aeruginosa biofilm: 80%

This is a selection: effects in other tests are not listed, and their absence says nothing.
